## Primary screen of a compound library

The values are deposited in ChEMBL (CHEMBL3988442, “University of Dundee, Small-Polar-MMV Screening Library” (2021)).

A: 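Phenotypic screen: M. tuberculosis growth, cholesterol and DPPC medium, 4 days; the read-out is not stated. Concentration: 500 µM. Direction is inferred from retests: higher values go with more growth inhibition. About 18,000 compounds were tested under these conditions; 5% (about 900) showed 50% or more at least once.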
B: 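Whole-cell growth test on Mycobacterium tuberculosis, read after 3 days in glucose-containing 7H9 medium; the read-out is not stated. Compounds at 500 µM. The record gives no direction; compounds that gave an IC50 in retests scored well above the rest, so higher reads as more growth inhibition. Of about 18,000 compounds tested this way, about 1,400 (7.9%) reached 50% or more in at least one test.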

Values are the deposited “Percent Effect”, in %. The controls that fix the scale are not given in the record; negative values are as filed. The entries come from a sample that favours strong results. A dash means the value is not listed here; it may have been measured.

structure | A | B
N#Cc1ccc(NC(=O)Cn2ccnc2)cc1 | 14.19% | 50.63%
NCCCc1nc(-c2ccc(F)cc2)no1 | 67.63% | 71.09%
CSC(C)CNC(=O)[C@@H]1CCCN1 (some centres undefined) | - | -0.4947%
CC(N)(CO)c1ccc(Br)cc1 (centres undefined) | 15.92% | 19.74%
CCCn1cc(CNc2ccc(F)cn2)cn1 | 76.13% | 65.97%
COC(=O)CCCNc1ccc2c(c1)OCCO2 | 76.85% | 57.46%
O=S1(=O)CCN(c2ccnc3cc(Cl)ccc23)CC1 | - | -7.6%
COc1cc(CNCCO)c(Cl)cc1OCC(N)=O | - | -2.537%
COCC(C)NC(=O)Cc1csc(-c2ccccn2)n1 (centres undefined) | - | 13.14%
O=C1OCCN1C1CCNC1 (centres undefined) | -9.359% | -
NC(=O)CNC(=O)c1cc(Cl)ccc1OC1CCCC1 | -4.744% | -
Cc1c(Cl)c(C(F)F)nn1CC(=O)NCC1CCCO1 (centres undefined) | 3.273% | -
CNc1snc(C)c1C(=O)N1CCN(C2CC2)CC1 | - | -0.6201%
CCC1(C(=O)Nc2ccc3[nH]ncc3c2)CCNC1 (centres undefined) | 6.08% | -
COCCCOC1CN(C(=O)c2cc(F)ccc2C)C1 | 23.23% | 49.06%
CCN(CC)CCCNC(=O)c1ccccc1 | -9.281% | -
CN1N=C(C(=O)NCc2ccc(Cl)cc2)CCC1=O | 65.91% | 73.36%
CC(=O)Nc1cccc(CSC(C)CCO)c1 (centres undefined) | - | 20.4%
COCCC(C)(O)C(C)(C)CN (centres undefined) | 3.252% | -
COc1cccc(S(=O)(=O)CCN2CCCC2CO)c1 (centres undefined) | 65.05% | -1.885%
Cc1cc(OCC(=O)NCc2ccccc2F)no1 | 50.7% | 65.06%
NS(=O)(=O)N(Cc1cccs1)C1CC1 | - | 20.6%
CSC(C)(C)CNC(=O)NCCC1CCCO1 (centres undefined) | - | 17.11%
COc1cc(CNC(C)C)cc(Br)c1OCC(N)=O | 1.027% | -
NC(=O)C1(NC(=O)Nc2cccc(Br)c2)CC1 | 5.497% | -
Cc1ccc(NC(=O)NC2CCCS(=O)(=O)C2)s1 (centres undefined) | - | 1.514%
NCC(=O)N1CCCC(CCc2c(F)cccc2F)C1 (centres undefined) | 84.15% | 83.68%
NC(=O)COc1ccc(CNCc2ccccc2)cc1 | - | 8.956%
OCC(c1ccc(Br)cc1)N1CCNCC1 (centres undefined) | - | 31.28%
CN(CCN1CCCC1)S(=O)(=O)c1ccccc1 | - | 59.31%
Cc1cc(CN(C)C(=O)CSCCN2CCCC2)on1 | -19.81% | -
O=C1NCC(C(=O)Nc2nc(C3CC3)cs2)N1 (centres undefined) | 8.445% | -
CCn1cc(CN2CC(C)OCC2(C)C)cn1 (centres undefined) | - | -7.988%
O=c1n(Cc2ccccc2)nnn1-c1cccs1 | 76.26% | 78.62%
CC(C)CNC(=O)CCN1C(=O)c2cccnc2C1=O | -1.205% | -
OCC(O)CSCCN1CCCc2ccccc21 (centres undefined) | 28.81% | -
CSCc1noc(CN2CCN(C)C(CCO)C2)n1 (centres undefined) | - | 1.869%
CN(Cc1cccc2cnccc12)C(=O)CNC(N)=O | -5.982% | -
CCNC(=O)N1CCN(c2ccncc2Cl)CC1 | 8.085% | -
CCS(=O)(=O)N(C)CCCNc1ccc(Cl)cn1 | 75.35% | 80.45%
CSCCC(=O)NCc1ccccc1F | - | 37.26%
Cc1cccnc1CCN | - | 4.701%
COc1cccc(OCC(=O)NCC2CCCO2)c1 (centres undefined) | 48.81% | 63.07%
CC(C)[C@@H](CO)Nc1cc([C@H]2C[C@@H](N)C2)ncn1 | - | 19.22%
COC(C)(C)c1nsc(N)n1 | - | 7.525%
C=C(C)COc1ccc(C(=O)NCC[C@@H](C)CO)cc1 | 65.35% | 67.6%
CC(Sc1ccccn1)C(=O)NCCn1ccnc1 (centres undefined) | - | 9.407%
Cc1cccn2cc(CS(=O)(=O)CCCC#N)nc12 | - | 2.23%
COc1cc(CNC(=O)NC2CCCC2)ccc1O | - | 22.13%
CCC1CCCCN1C(=O)CN1CCCC[C@@H]1CO (some centres undefined) | -4.782% | -
CN(C)C(=O)CCOC(=O)c1cccc(Cl)c1 | 53.06% | 70%
CCCNC(=O)Nc1cn(CC)nc1C(N)=O | - | -8.79%
CC(=O)c1cnnn1C | - | -2.19%
Cc1ncn(Cc2cc(=O)n3ccsc3n2)c(=O)c1C | - | 1.324%
COCCc1noc(CN2CC[C@H](CO)[C@H](O)C2)n1 | - | 7.656%
CCC(COC)NCc1nnc2n1CCCC2 (centres undefined) | -2.357% | -
O=C1CCN(Cc2ccc(OC(F)F)c(Cl)c2)CCN1 | 33.78% | -
Cc1cc(NC(=O)NC2CCOC2)n(C(C)C)n1 (centres undefined) | 11.33% | -
COC(=O)CN(C(=O)c1ccc(Cl)cn1)C1CCCC1 | 9.789% | -
COCCn1nnc(-c2cccc(OC)c2)n1 | 86.14% | 86.05%
OCCNCCNCc1ccc(-c2ccccc2)o1 | 57.73% | 56.39%
CO[C@H]1C[C@@H](O)C12CCN(C(=O)Cc1cccs1)CC2 | - | 17.04%
O=C(CNC(=O)c1ccccc1)NCc1ccncc1 | - | -11.6%
COc1ccc(C(F)(F)F)cn1 | - | -2.921%
O=C1CCC(C(=O)NCC(CO)Cc2cccs2)=NN1 (centres undefined) | - | 17.26%
COc1ccc(-c2ccnc(CO)c2)c(OC)c1 | - | 43.99%
NCCc1cccc2cc[nH]c12 | 99.27% | 83.96%
CC(Sc1ncc2ccccn12)C(=O)NC(N)=O (centres undefined) | - | -3.799%

4 of the entries, repeated:

{"structure": "COCCn1nnc(-c2cccc(OC)c2)n1", "A": 86.14, "B": 86.05}
{"structure": "CN1N=C(C(=O)NCc2ccc(Cl)cc2)CCC1=O", "A": 65.91, "B": 73.36}
{"structure": "COc1cccc(S(=O)(=O)CCN2CCCC2CO)c1", "stereo": "centres undefined", "A": 65.05, "B": -1.885}
{"structure": "COC(C)(C)c1nsc(N)n1", "B": 7.525}